{"source": "paper PMC5521740", "target": "His-CRP (cAMP receptor protein) (Klebsiella pneumoniae NTUH-K2044) (UniProt A0ACD7U7W2)", "assay": "EMSA", "settings": "cAMP (20 mM); 5x binding buffer ([…], room temperature, 20 min ([…]) or 30 min ([…]; recombinant protein; residues 1-210; protein details: His; label: 5'-32P; probe letters rebuilt from the primers and the genome", "data": [{"sequence": "ATACCGGCAGCTGCGAGTAATTTTACGTTTTTCATGGTGTTTGTCCTTTTAACTTTTATGGTGGAAAGCATGTTTGCTTTCGATGGACTTATAATAAGTCTGCTAACTATAACGCGCGTGGCAAAAAGTGCGATTTAGATCACATTTTTATGGCGGTTTGATGGCGTAAACATGATCGTTTATCTATTTTTTAATTTAAAAACAATCAATTAATGATTTGCTTCTGAAAGGGGGTATCACATGGGCTGCCCTTGTTCAGGGAGAGGAATGCGCCTCATTCATGCTTTCACCATTCGTTGTGTGAATGGTTTGGTGCTGTTTTCACCACCGCAAAGGCAGATTCAGACTTATCGCGATGGCCTTCCGAGGGCTTTTTCTGCATGCTGTTGCGGTCACTTTCTCTCGCTCTGGCGTTAGGCTTGCTGCGCTGTAAACAACCACCCTCGCGTTTTCATCTATCAATGACTGTTTATTAATAGTCGATGGTTATCTGTTATATAACTTAATGAAACGTGAACAAATGTATATTTGTCGGCGAATAAATAGCATTCTTTGACGCCGATAGCACCAGCGAACTTATATTTTTAGGTTCGTTACCTGACGCCTTAAATATTGCGGCTCCCGGTCAGTCGAAGATTCTATTAGCAGTGGCATAAATCAGCATCG (double strand) [KP1_4563 promoter EMSA fragment]", "values": [{"measurement": "binding result", "value": "binds"}]}]}
